Laboratory results: US20050080570A1, “Predicting probabilities of achieving a desired minimum trough level for an anti-infective agent” (priority 2003, published 2005)

Columns and labels:
[1] = average value across the studies
[2] = 100% human serum; fourth study; cited from earlier work

Question: With Amprenavir or fos-Amprenavir [APV] as the substance, how does the “Protein-binding correction factor, Average” value [1] read?
Answer: The value was 6.8.

Question: And the “Protein-binding correction factor, 100% HS” value [2]?
Answer: Its value is 10.5.
